According to article doi:10.1101/2021.03.25.436940:

System: VirE2 (Agrobacterium tumefaciens)
Assay: EMSA
Settings: 5 mM Mg2+

GCGGTGGAAGTAGCAACAGCGGTTCTAGCGGCAGCGGCG [39-nt experimental oligo (ssDNA)]
binds: binding result | binding result (GSH added, no GSTU5, no significant difference to VirE2 alone) | binding result (OsGSTU5 added, no GSH, no significant difference to VirE2 alone)

The exact form of at least one protein or probe is not confirmed.
